ChEMBL document CHEMBL4819135, “Design, synthesis and anti-HIV evaluation of novel 5-substituted diarylpyrimidine derivatives as potent HIV-1 NNRTIs” (Bioorg Med Chem, 2021)

Biological target: Human immunodeficiency virus type 1 reverse transcriptase (Human immunodeficiency virus 1, UniProt Q72547)
Experiment: Inhibition of wild type HIV-1 reverse transcriptase assessed as reduction in biotin-dUTP incorporation in presence of template-primer incubated for 60 mins followed by transferring to streptavidin-coated plate and further incubation for 60 mins by ELISA

**Q.** With `Cc1cc(C#N)cc(C)c1Oc1nc(Nc2ccc(C#N)cc2)nc(N)c1Br` [ETRAVIRINE] as the compound, how does the IC50 read?
**A.** 59 nM
